Here are results for eight compounds from patent publication US5981167A, “Surface plasmon resonance based enzymatic assay” (priority 1998, dated 1999).

One may read the Km as the substrate concentration at which the rate is half of its maximum.

Where two headings read alike, the source gives them in different places.

The target of assay [1] is T1, CMV protease, A143V/V209A (Human herpesvirus 5 strain AD169, UniProt P16753, A143V). The following applies: 2 hours.
The target of assay [2] is CMV protease, soluble A143V/V209A (human CMV) (UniProt P16753).
For assay [3], the target named is T1, CMV protease, A143V/V209A. The assay is described as follows: Effect of dithiothreitol on CMV protease activity. It counts as biochemical.
Assay [4] addresses purified double mutant form of CMV protease, A143V/V209A (Human herpesvirus 5 strain AD169, UniProt P16753, A143V). It counts as biochemical. The following applies: 22° C.; read-out: apparent affinity (km).
Assay [5] has as its target maturation site peptide […] (CMV).
Assay [6] has as its target Serine analog (Biotin)-R--G--V--V--N--A--S--S--R--L--A-(pY).
For assay [7], the target named is Native Peptide (Biotin)-R--G--V--V--N--A--S--C--R--L--A-(pY).
For assay [8], the target named is T1, CMV protease, A143V/V209A. It counts as biochemical. Also on record: recombinant autolysis-site double mutant. The following applies: read-out: IC-50, competition with biotinylated native substrate.

Take “(Biotin)-R--G--V--V--N--A--S--C--R--L--A-(pY) [native substrate]”: the “cleavage of the substrate” value in assay [1] (0.06 μM protease) was 50%. Consider native maturation site peptide (…), for which, in assay [2], the IC-50 of inhibition of the enzyme activity by competition with the biotinylated native substrate was 1 mM.

Regarding `O[C@H](CS)[C@H](O)CS` (racemic) [DTT, Dithiothreitol], in assay [3] (20-hour assay), the “effect of addition to inactive protease purified in the absence of DTT” value was “complete reactivation”. The “lowering of percent cleavage of the native substrate” value in assay [3] (DTT reduced from 800 μM to 4 μM, 2 hours) came to 12%. On to “AGVVNASSRLA [CMV maturation site peptide, P2' serine analog]”, for which the Km in assay [4] came out at 900 µM. For “(Biotin)-R--G--V--V--N--A--S--S--R--L--A-(pY) [serine analog]”, in assay [1] (0.5 μM protease), the “cleavage of the substrate” value amounted to 50%.

For “CMV protease, soluble A143V/V209A (from UniProt P16753) (enzyme)”, in assay [5], the Km worked out at 893 µM. Also, the cleavage of the substrate (BIAcore-based CMV assay) in assay [6] and in assay [7] was 50% each time. In the case of “CMV protease, soluble A143V (from UniProt P16753) (enzyme)”, the Km in assay [5] was found to be 962 µM.

As for “GVVNASCRLA [native peptide, native maturation site peptide of CMV protease]”, the IC50 in assay [8] is about 1 mM.
